Pooled drug test results. Numbers come from NIAID ChemDB, via PubChem.

Common to all: growth or infection tests; agent: Toxoplasma gondii

ECn: concentration that inhibits the pathogen or its effect by n%.

{"compound": "CC[C@H]1OC(=O)[C@H](C)[C@@H](O[C@H]2C[C@@](C)(OC)[C@@H](O)[C@H](C)O2)[C@H](C)[C@@H](O[C@@H]2O[C@H](C)C[C@H](N(C)C)[C@H]2O)[C@](C)(O)C[C@@H](C)/C(=N\\OCOCCOC)[C@H](C)[C@@H](O)[C@]1(C)O", "measure": "EC50", "cells": "MRC-5", "strain": "RH", "value": "1.34 µg/mL"}
{"compound": "Cc1[nH]c2ccccc2c(=O)c1-c1ccc(Oc2ccc(OC(F)(F)F)cc2)cc1", "measure": "EC50", "method": "absorbance", "strain": "2F", "value": "0.0001 µM"}
{"compound": "Nc1ccc(S(=O)(=O)Nc2cc(F)cc(F)c2)cc1", "measure": "EC50", "value": "42.7 µM"}
{"compound": "CCOC(=O)C1C(c2ccccc2)CC(c2ccccc2)=CC12NCCN2", "measure": "EC50", "cells": "HFF", "strain": "RH", "value": "0.0097 µM"}
{"compound": "CC[C@H](C)[C@H]1O[C@]2(CC[C@@H]1C)C[C@@H]1C[C@@H](C/C=C(\\C)C(O[C@H]3C[C@H](OC)[C@@H](O[C@H]4C[C@H](OC)[C@@H](O)[C@H](C)O4)[C@H](C)O3)[C@@H](C)/C=C/C=C3\\CO[C@@H]4[C@H](O)C(C)=C[C@@H](C(=O)O1)[C@]34O)O2", "measure": "EC50", "method": "ELISA", "strain": "RH", "value": "0.27 µg/mL"}
{"compound": "O=C1c2cc(I)ccc2-n2c1nc1ccccc1c2=O", "measure": "EC50", "cells": "HFF", "strain": "ATCC 50839", "value": "0.0003 µg/mL"}
{"compound": "C[C@H]1[C@@H](CCCO)O[C@@H]2OC3(C)CC[C@H]4[C@H](C)CC[C@@H]1[C@@]24OO3", "measure": "EC50", "cells": "HFF", "value": "0.5 µg/mL"}
{"compound": "CC1=C(C=O)O[C@@H]2O[C@]3(C)CC[C@H]4[C@H](C)CC[C@@H]1[C@@]24OO3", "measure": "EC50", "method": "β-galactosidase", "cells": "HFF", "value": "1 µM"}
{"compound": "O=C1C(=O)c2ccccc2C(O)=C1C1CCC(c2ccc(Cl)cc2)CC1", "measure": "EC50", "method": "ELISA", "strain": "RH (type I)", "value": "16.51 µM"}
{"compound": "O=[N+]([O-])c1ccc(CNc2ncnc3c2ncn3[C@@H]2O[C@H](CO)[C@@H](O)[C@H]2O)c(F)c1", "measure": "EC50", "value": "230 µM"}
{"compound": "CCOC(=O)c1cc2ccccc2nc1C", "measure": "EC50", "cells": "HFF", "value": "100 µM"}
{"compound": "C[C@H]1[C@@H](CCCC(=O)c2ccccc2Br)O[C@@H]2OC3(C)CC[C@H]4[C@H](C)CC[C@@H]1[C@@]24OO3", "measure": "EC50", "cells": "HFF", "value": "0.6 µg/mL"}
{"compound": "CC(C)CCCc1ccc2c(c1)C(=O)C=C(N1CCCC1)C2=O", "measure": "EC50", "method": "ELISA", "strain": "RH (type I)", "value": "0.32 µM"}
{"compound": "CC[C@@]1(C)NC(=O)[C@H](CCCCCC(=O)[C@H](C)O[Si](C)(C)C(C)(C)C)NC(=O)[C@H]2C[C@H](C)CN2C(=O)C(Cc2ccccc2)NC1=O", "measure": "EC50", "cells": "HFF", "strain": "RH", "value": ">0.09 µM"}
{"compound": "CCCN(CCC)c1c([N+](=O)[O-])cc(S(N)(=O)=O)cc1[N+](=O)[O-]", "measure": "EC50", "strain": "RH", "value": "<1 µM"}
{"compound": "CCC(=O)CCCCC[C@@H]1NC(=O)[C@H]2CCCCN2C(=O)[C@H](C(C)CC)NC(=O)[C@H](Cc2cn(OC)c3ccccc23)NC1=O", "measure": "MIC", "value": "0.008 µg/mL"}
{"compound": "COc1c(N2C[C@@H]3C(CN)[C@@H]3C2)c(F)cc2c(=O)c(C(=O)O)cn(C3CC3)c12", "measure": "EC50", "cells": "MRC-5", "strain": "RH", "value": "66 µM"}
{"compound": "CO[C@H]1/C=C/O[C@@]2(C)Oc3c(C)c(O)c4c(O)c(c5c(c4c3C2=O)NC2(CCN(CC(C)C)CC2)N=5)=NC(=O)/C(C)=C\\C=C\\[C@H](C)[C@H](O)[C@@H](C)[C@@H](O)[C@@H](C)[C@H](OC(C)=O)[C@@H]1C", "measure": "EC50", "value": "1.68 µg/mL"}
{"compound": "CC(=C\\Cc1ccccc1)/C=C(\\C)C[C@H](C)C[C@]1(C)C[C@@]2(C)OC(=O)C[C@H]2OO1", "measure": "EC50", "cells": "HFF", "strain": "RH", "value": "0.064 µM"}
{"compound": "COc1c(N2C[C@@H]3C(CN)[C@@H]3C2)c(F)cc2c(=O)c(C(=O)O)cn(-c3ccc(F)cc3F)c12", "measure": "EC50", "cells": "MRC-5", "strain": "RH", "value": "37 µM"}
{"compound": "CC1=C(C2=NCCS2)O[C@@H]2O[C@]3(C)CC[C@H]4[C@H](C)CC[C@@H]1[C@@]24OO3", "measure": "EC50", "method": "β-galactosidase", "cells": "HFF", "value": "1.7 µM"}
{"compound": "CC(C)=CCCc1ccc2c(c1)C(=O)C(N1CCCC1)=CC2=O", "measure": "EC50", "method": "ELISA", "strain": "RH (type I)", "value": "69.35 µM"}
{"compound": "CC1NC(=O)C(C)NC(=O)C2CCCN2C(=O)C(CCCCCC(=O)C2CO2)NC1=O", "measure": "MIC", "value": "0.015 µg/mL"}
{"compound": "CC(C)=CCC[C@@H](C)CCCC[C@H]1O[C@@H]2OC3(C)CC[C@H]4[C@H](C)CC[C@@H]([C@H]1C)[C@@]24OO3", "measure": "EC50", "cells": "HFF", "value": "2.7 µg/mL"}
{"compound": "Cc1nc2n(c(=O)c1CCN1CCC(c3noc4cc(F)ccc34)CC1)CCCC2", "measure": "EC50", "cells": "HFF", "value": "74 µg/mL"}
{"compound": "Nc1ccc(S(=O)(=O)Nc2cc(Br)cc(Br)c2)cc1", "measure": "EC50", "value": "8.9 µM"}
{"compound": "CCCCCCCCN(CC1=C(O)c2ccccc2C(=O)C1=O)Cc1ccccc1", "measure": "EC50", "strain": "PLK", "value": "3 µM"}
{"compound": "CO[C@@H]1[C@@H](O[C@@H]2O[C@H](C)[C@@H](O[C@H]3C[C@@](C)(O)[C@@H](O)[C@H](C)O3)[C@H](N(C)C)[C@H]2O)[C@@H](CC=O)C[C@@H](C)[C@@H](O[C@H]2CC[C@H](N(C)C)[C@H](C)O2)/C=C/C=C/C[C@@H](C)OC(=O)C[C@H]1O", "measure": "EC50", "value": "<2 µg/mL"}
{"compound": "CC(=O)O[C@H]1C(=O)[C@@]2(C)[C@H]([C@H](OC(=O)c3ccccc3)[C@]3(O)C[C@H](OC(=O)[C@H](O)[C@@H](NC(=O)c4ccccc4)c4ccccc4)C(C)=C1C3(C)C)[C@]1(OC(C)=O)CO[C@@H]1C[C@@H]2O", "measure": "EC50", "strain": "RH", "value": "<2 µM"}
{"compound": "Cc1nc2n(c(=O)c1CCN1CCC(c3noc4cc(F)ccc34)CC1)CC(O)CC2", "measure": "EC50", "cells": "HFF", "value": "20.1 µg/mL"}
{"compound": "CCOC(=O)C1C(c2ccc(Cl)cc2)CC(c2ccccc2)=CC12NCCN2", "measure": "EC50", "cells": "HFF", "strain": "RH", "value": "0.0097 µM"}
{"compound": "O=Nc1c(-c2c(O)[nH]c3ccc([N+](=O)[O-])cc23)[nH]c2ccccc12", "measure": "EC50", "cells": "HFF", "strain": "ATCC 50839", "value": "0.4 µg/mL"}
{"compound": "CN(C)CCCN1c2ccccc2Sc2ccc(Cl)cc21", "measure": "EC50", "cells": "HFF", "value": "2.6 µg/mL"}
{"compound": "CCOC(=O)C1C(c2ccccc2)CC(c2ccc(Cl)cc2)=CC12NCCN2", "measure": "EC50", "cells": "HFF", "strain": "RH", "value": "0.0097 µM"}
{"compound": "O=Nc1c(-c2c(O)[nH]c3ccc(S(=O)(=O)O)cc23)[nH]c2ccccc12", "measure": "EC50", "cells": "HFF", "strain": "ATCC 50839", "value": ">320 µg/mL"}
{"compound": "Nc1ccc(S(=O)(=O)Nc2cc(I)cc(I)c2)cc1", "measure": "EC50", "value": "15.9 µM"}
{"compound": "CCCN(CCC)c1c([N+](=O)[O-])cc(C(F)(F)F)cc1[N+](=O)[O-]", "measure": "EC50", "strain": "Oryzalin-resistant", "value": ">5 µM"}
{"compound": "CC[C@@]1(C)NC(=O)[C@H](CCCCCC(=O)[C@H](C)OC(=S)Oc2ccccc2)NC(=O)[C@H]2C[C@H](C)CN2C(=O)C(Cc2ccccc2)NC1=O", "measure": "EC50", "cells": "HFF", "strain": "RH", "value": "0.0113 µM"}

Lines come from different laboratories, so protocols vary.